According to PubChem BioAssay AID573 (SRMLSC, 2007):
The list shows a part of the results, in another mix than the full data. Calls of active or inactive are those of the source.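 How the source made its calls: active means growth inhibition at or above a cutoff equal to the mean over every tested compound plus 3 SD (cut at about 60% in these data); inactive means the rest.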

Assay: growth inhibitors of E. coli tolC mutant, primary screen, strain BW25113 ΔtolC::kan, 384-well (AID 573);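 further: growth measured after 20 h incubation at 37 °C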
Details: OD615, stronger effect = higher value, screened at 10 µM (by protocol)
Summary of the method: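 signal = optical density read at 615 nm | test system = E. coli ΔtolC::kan strain BW25113 | timing = 20 h compound exposure of bacteria at 37 °C | buffer or medium = LB medium plus 50 µg/mL kanamycin | compound dosing = 10 µM final, single dose | evaluation = % inhibition of E. coli growth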

Question: For CCN(CC)CC(O)COC(=O)C(O)(c1ccccc1)C1CCCCC1 (stereo not drawn), which growth inhibition is on record?
Answer: inactive: 12.4%

Question: For COc1ccccc1OP(C)(=O)Nc1c(C)n(C)n(-c2ccccc2)c1=O (stereo not drawn), which growth inhibition is on record?
Answer: inactive: -6.22%

Question: With CP(=O)(Oc1ccccc1)N1CCOC1=O (stereo not drawn) as the molecule, how does the growth inhibition read?
Answer: inactive: -12.7%

Question: Which growth inhibition does the source give for Cc1nc2ccc3ccccc3c2o1.O=[N+]([O-])c1cc([N+](=O)[O-])c(O)c([N+](=O)[O-])c1 here?
Answer: inactive: 9.03%

Question: For COc1ccccc1OP(C)(=O)Nc1ccc(C)c(C)c1 (stereo not drawn), which growth inhibition is on record?
Answer: inactive: 3.2%

Question: Which growth inhibition does the source give for CP(=O)(Nc1ccccn1)Oc1ccccc1 (stereo not drawn) here?
Answer: inactive: -15.4%

Question: For CP(=O)(Nc1ccccc1F)Oc1ccccc1 (stereo not drawn), which growth inhibition is on record?
Answer: inactive: -7.38%

Question: Which growth inhibition does the source give for CN(C)CCOC(=O)C(O)(c1ccccc1)C1CCCCC1 (stereo not drawn) here?
Answer: inactive: -10.1%

Question: For CP(=O)(Nc1ccc2c(c1)OCCO2)Oc1ccccc1 (stereo not drawn), which growth inhibition is on record?
Answer: inactive: 1.9%

Question: Which growth inhibition does the source give for Cc1ccccc1NP(C)(=O)Nc1ccccc1C here?
Answer: inactive: -25%

Question: With CCOP(C)(=S)SCC(=O)NC(C)(CC)C(=O)O (stereo not drawn) as the molecule, how does the growth inhibition read?
Answer: inactive: -15.3%

Question: For Cc1nc2ccc3ccccc3c2s1.O=[N+]([O-])c1cc([N+](=O)[O-])c(O)c([N+](=O)[O-])c1, which growth inhibition is on record?
Answer: inactive: 6.93%

Question: Which growth inhibition does the source give for Cc1ccc(C)c(NP(C)(=O)Oc2ccccc2)c1 (stereo not drawn) here?
Answer: inactive: 0.31%

Question: For COc1ccccc1OP(C)(=O)Nc1ccc(C)cc1 (stereo not drawn), which growth inhibition is on record?
Answer: inactive: -27%

Question: For Cc1ccc(NP(C)(=O)Oc2ccccc2)c(C)c1 (stereo not drawn), which growth inhibition is on record?
Answer: inactive: 6.56%

Question: Which growth inhibition does the source give for CP(=S)(Nn1cnnc1)Oc1ccccc1 (stereo not drawn) here?
Answer: inactive: -19.4%

Question: Which growth inhibition does the source give for CCOP(C)(=S)SCC(=O)NC(C)C(=O)O (stereo not drawn) here?
Answer: inactive: -16.5%

Question: For CP(=O)(NC(=O)Nc1ccccc1)Oc1ccccc1 (stereo not drawn), which growth inhibition is on record?
Answer: inactive: 5.95%
